Pooled drug test results. Numbers come from NIAID ChemDB, via PubChem.

Shared fields: tests in culture; organism: Mycobacterium tuberculosis

Blank or dashed fields: not listed here. Inhibition is in % at the dose shown (toxicity tests: loss of growth or viability). Conditions beyond the fields shown may differ between rows. MIC bound comes from a single tested concentration. ECn: concentration that inhibits the pathogen or its effect by n%. MIC50, MIC90 and the like: level of inhibition, or share of isolates inhibited.

smiles | strain or isolate | method | endpoint | dose | result
O=C1NC(=S)N/C1=C/c1ccc(-c2ccccc2)cc1 | H37Rv |  | inhibition | 6.25 µg/mL | 97%
COc1c(N2C[C@@H]3C(CN)[C@@H]3C2)c(F)cc2c(=O)c(C(=O)O)cn(C3CC3)c12 |  |  | MIC |  | 64 µg/mL
CCn1cc(C(=O)O)c(=O)c2cc(F)c(N3CCN(C/C(=N/OCc4ccccc4)c4ccco4)CC3)cc21 | H37Rv |  | inhibition | 6.25 µg/mL | 74%
NNC(=O)c1cccs1 | H37Rv | visual reading | MIC99.9 |  | 10 µg/mL
CO[C@H]1/C=C/O[C@@]2(C)Oc3c(C)c(O)c4c(O)c(c5[nH]c(N6CCOCC6)nc5c4c3C2=O)NC(=O)/C(C)=C\C=C\[C@H](C)[C@H](O)[C@@H](C)[C@@H](O)[C@@H](C)[C@H](OC(C)=O)[C@@H]1C | H37Rv |  | MIC |  | 0.005 µg/mL
Cn1c([N+](=O)[O-])cnc1-c1nnc(S(=O)Cc2cccc([N+](=O)[O-])c2)s1 |  |  | MIC |  | >6.25 µg/mL
O=C(O)c1cc(=O)c2ccccc2[nH]1 | H37Rv | BACTEC | MIC bound |  | >12.8 µg/mL
COc1ccc(/C=C2/NC(=S)NC2=O)c(OC)c1 | H37Rv |  | EC50 |  | <6.25 µg/mL
NC(=O)c1cn(Cc2ccccc2)c(=O)n1Cc1ccccc1 | H37Rv | BACTEC | MIC bound |  | >12.5 µg/mL
O=[N+]([O-])c1cccc(CS(=O)(=O)c2nnc(-c3ccc([N+](=O)[O-])s3)s2)c1 |  |  | MIC |  | >6.25 µg/mL
FC(F)(F)c1cc(NCCN2CCCC2)c2cccc(C(F)(F)F)c2n1 | H37Rv |  | inhibition | 6.25 µg/mL | 62%
CCOP(=O)(OCC)/C(C#N)=C\c1ccco1 | H37Rv | BACTEC | MIC bound |  | >12.5 µg/mL
CCCCCCCCCCCCCCCCNC(CC(=O)OCC)[C@H]1O[C@@H]2OC(C)(C)O[C@@H]2[C@H]1OC | H37Rv |  | MIC |  | 6.25 µg/mL
N#CC1(OC2OC(CO)C(O)C(O)C2O)C=CC(O)C1O | H37Rv | BACTEC | MIC |  | ≥12.5 µg/mL
CO/N=C(\C(=O)N[C@@H]1C(=O)N2C(C(=O)O)=C(CSc3nc(=O)c(=O)[nH]n3C)CS[C@H]12)c1csc(N)n1 | 9 strains (MDR) |  | MIC50 |  | 128 µg/mL
O=[N+]([O-])c1cccc(CS(=O)c2nnc(-c3ccc([N+](=O)[O-])s3)s2)c1 |  |  | MIC |  | >6.25 µg/mL
FC(F)(F)c1cc(NCCNc2cc(C(F)(F)F)nc3c(C(F)(F)F)cccc23)c2cccc(C(F)(F)F)c2n1 | H37Rv |  | inhibition | 6.25 µg/mL | 46%
CC(C)C(=O)c1cn(-c2ccccc2)nn1 | H37Rv |  | inhibition | 12.5 µg/mL | 50%
CCCOc1ccc(/C=C2/NC(=S)NC2=O)cc1 | H37Rv |  | inhibition | 6.25 µg/mL | 95%
N#CCC(=O)N/N=C(\CC1(O)C(=O)Nc2c(Cl)ccc(Cl)c21)c1ccco1 | H37Rv | BACTEC | inhibition | 12.5 µg/mL | 5%
COc1ccc(/C=C/C(=O)c2cc3c(cc2O)OC2(CCN(C(=O)OC(C)(C)C)CC2)CC3=O)c(OC)c1 | H37Rv | agar | MIC |  | 25 µg/mL
O=C1NC(=S)N/C1=C/c1cccc(OCc2ccccc2)c1 | H37Rv |  | EC50 |  | <6.25 µg/mL
CCCCCCCCCCCCCCCCNC(CC(=O)OCC)[C@H]1O[C@@H]2OC(C)(C)O[C@@H]2[C@H]1OCc1ccccc1 | H37Rv |  | MIC |  | 50 µg/mL
CC1(C)S[C@@H]2[C@H](NC(=O)[C@H](N)c3ccc(O)cc3)C(=O)N2[C@H]1C(=O)O | 9 strains (MDR) |  | MIC50 |  | 64 µg/mL
C1=C2CCCC/C=C\C=C\CCN3CC[C@@H]4[C@H](CCCCCC/C=C\C=C/CCN(C2)C[C@H]14)C3 | H37Rv (RIF-resistant) |  | MIC |  | 3.13 µg/mL
O=C1C=CC(=O)c2[nH]cnc21 | H37Rv | BACTEC | MIC bound |  | >12.5 µg/mL
O=C(/C=C/c1ccc2c(c1)OCO2)c1cc2c(cc1O)OC1(CCCCC1)CC2=O | H37Rv | agar | MIC |  | >25 µg/mL
O=C(CC(=O)N1N=C(n2ccc3ccccc32)CC1c1ccccc1)Nc1ccccc1Cl | H37Rv | BACTEC | MIC bound |  | >12.5 µg/mL
CCOC(=O)CCCOc1ccc(/C=C2/NC(=S)NC2=O)cc1 | H37Rv |  | inhibition | 6.25 µg/mL | 77%
O=C(CN1CCN(c2cc3c(cc2F)c(=O)c(C(=O)O)cn3C2CC2)CC1)c1cccs1 | H37Rv |  | inhibition | 6.25 µg/mL | 96%
COc1ccc(/C=C/C(=O)c2cc3c(cc2O)OC2(CCCCC2)CC3=O)c(OC)c1 | H37Rv | agar | MIC |  | >25 µg/mL
CCCCNC(CC(=O)OCC)[C@H]1O[C@@H]2OC(C)(C)O[C@@H]2[C@H]1OC | H37Ra |  | MIC |  | >25 µg/mL
FC(F)(F)c1cc(NCCCCNc2cc(C(F)(F)F)nc3c(C(F)(F)F)cccc23)c2cccc(C(F)(F)F)c2n1 | H37Rv |  | MIC |  | >6.25 µg/mL
O=C1NC(=S)N/C1=C/c1cccc(OCc2ccc(Cl)cc2Cl)c1 | H37Rv |  | inhibition | 6.25 µg/mL | 84%
Cc1coc(C)c1C(=O)c1cn(-c2ccc(Cl)cc2)nn1 | H37Rv |  | MIC |  | >12.5 µg/mL
COc1c(N2C[C@@H]3C(CN)[C@@H]3C2)c(F)cc2c(=O)c(C(=O)O)cn(-c3ccc(F)cc3F)c12 |  |  | MIC |  | 128 µg/mL
Cc1c(-c2cc(-c3ccccc3)n[nH]c2=O)c2ccccc2n1C | H37Rv | BACTEC | MIC bound |  | >6.25 µg/mL
CCCCCCC(C)c1ccc2c(c1)C(=O)c1nc3ccncc3c(=O)n1-2 | H37Rv |  | MBC |  | 2 µg/mL
CC(C)C(=O)c1cn(-c2cccc3ccccc23)nn1 | H37Rv |  | MIC |  | >12.5 µg/mL
COc1c(N2C[C@@H]3C(N)[C@@H]3C2)c(F)cc2c(=O)c(C(=O)O)cn(C3CC3)c12 |  |  | MIC |  | 64 µg/mL
Cc1cnc(CSc2nc3ccccc3[nH]2)c(C)c1 | Erdman | broth dilution / resazurin | EC50 |  | >50 µM
O=C1NC(=S)N/C1=C/c1cccc(OCc2ccc(Cl)cc2)c1 | H37Rv |  | EC50 |  | <6.25 µg/mL
O=C1C(O)=C(c2ccccc2)C(=O)C(O)=C1c1ccccc1 | H37Rv | BACTEC | MIC |  | ≥12.8 µg/mL
CCOC(=O)c1cn(O)nn1 | H37Rv |  | MIC |  | >12.5 µg/mL
CO[C@H]1/C=C/O[C@@]2(C)Oc3c(C)c(O)c4c(O)c(c5[nH]c(N6CCN(C)CC6)nc5c4c3C2=O)NC(=O)/C(C)=C\C=C\[C@H](C)[C@H](O)[C@@H](C)[C@@H](O)[C@@H](C)[C@H](OC(C)=O)[C@@H]1C | H37Rv |  | MIC |  | 0.005 µg/mL
CCOC(=O)CC(NC(C)CCCC(C)C)[C@H]1O[C@@H]2OC(C)(C)O[C@@H]2[C@H]1OCc1ccccc1 | H37Ra |  | MIC |  | >25 µg/mL
O=C(NC(CCS(=O)(=O)NO)C(=O)OCc1ccccc1)OCc1ccccc1 | H37Rv | BACTEC | inhibition | 12.5 µg/mL | 4%
O=[N+]([O-])c1ccc(CS(=O)(=O)c2nnc(-c3ccc([N+](=O)[O-])s3)s2)cc1 |  |  | MIC |  | >6.25 µg/mL
CCCCCCCCCCCCCCCCN[C@@H](CC(=O)OCC)[C@H]1O[C@@H]2OC(C)(C)O[C@@H]2[C@H]1OC | H37Rv |  | MIC |  | 6.25 µg/mL
Cc1c(OCC(F)(F)F)ccnc1CS(=O)(=O)c1nc2ccccc2[nH]1 | Erdman | broth dilution / resazurin | EC50 |  | >50 µM
CCCCCCCCCCCCCCCCNC(CC(=O)O)[C@H]1O[C@@H]2OC(C)(C)O[C@@H]2[C@H]1OC | H37Rv |  | MIC |  | 100 µg/mL
CC(=O)c1cn[nH]n1 | H37Rv |  | MIC |  | >12.5 µg/mL
FC(F)(F)c1cc(NCCN2CCOCC2)c2cccc(C(F)(F)F)c2n1 | H37Rv |  | inhibition | 6.25 µg/mL | 49%
CO[C@H]1/C=C/O[C@@]2(C)Oc3c(C)c(O)c4c(O)c(c5[nH]c(N6CCCCCC6)nc5c4c3C2=O)NC(=O)/C(C)=C\C=C\[C@H](C)[C@H](O)[C@@H](C)[C@@H](O)[C@@H](C)[C@H](OC(C)=O)[C@@H]1C | H37Rv |  | MIC |  | 0.01 µg/mL
CCOC(=O)CCNC(CC(=O)OCC)[C@H]1O[C@@H]2OC(C)(C)O[C@@H]2[C@H]1OC | H37Ra |  | MIC |  | >25 µg/mL
COC(=O)[C@H]1[C@H]2C[C@@H]3c4[nH]c5ccccc5c4CCN3C[C@H]2C[C@@H](O)[C@@H]1OC(=O)c1cc(OC)c(OC)c(OC)c1 | H37Rv | BACTEC | MIC bound |  | >12.8 µg/mL
CCOC(=O)c1cn(-c2ccc(Cl)cc2)nn1 | H37Rv |  | inhibition | 12.5 µg/mL | 0%
O=C(/C=C/c1ccc(O)cc1)c1c(O)cc(O)cc1OC1C(O)C(O)C(O)C(O)C1O | H37Rv | BACTEC | inhibition | 12.5 µg/mL | 0%
CCOC(=O)CCNC(CC(=O)OCC)[C@H]1O[C@@H]2OC(C)(C)O[C@@H]2[C@H]1OCc1ccccc1 | H37Rv |  | MIC |  | 50 µg/mL
COc1c(N2CCNC(C)C2)c(F)cc2c(=O)c(C(=O)O)cn(C3CC3)c12 |  |  | MIC |  | 0.12 µg/mL
O=C(O)c1cn(C2CC2)c2cc(N3CCN(C/C(=N/O)c4cccs4)CC3)c(F)cc2c1=O | H37Rv |  | inhibition | 6.25 µg/mL | 37%
NC(=O)c1c[n+](Cc2ccccc2)ccn1.[Br-] | H37Rv | BACTEC | MIC bound |  | >12.5 µg/mL
O=C(CN1CCN(c2cc3c(cc2F)c(=O)c(C(=O)O)cn3C2CC2)CC1)c1ccco1 | H37Rv |  | MIC |  | 0.78 µg/mL
C=C1C(=O)O[C@H]2C[C@@H]1C(=O)CC(C)CCC/C(C)=C/CC[C@@]2(C)O | H37Rv | BACTEC | inhibition | 12.5 µg/mL | 7%
CO[C@H]1/C=C/O[C@@]2(C)Oc3c(C)c(O)c4c(O)c(c(/C=N/N5CCN(C)CC5)c(O)c4c3C2=O)NC(=O)/C(C)=C\C=C\[C@H](C)[C@H](O)[C@@H](C)[C@@H](O)[C@@H](C)[C@H](OC(C)=O)[C@@H]1C | PR455 |  | MIC |  | 0.16 µg/mL
Cc1cc2nc3c(=O)[nH]c(=O)nc-3n(C[C@@H](O)[C@H](O)[C@H](O)CO)c2cc1C | H37Rv | BACTEC | MIC bound |  | >12.5 µg/mL
COc1cccc(/C=C/C(=O)c2cc3c(cc2O)OC2(CCCCC2)CC3=O)c1 | H37Rv | agar | MIC |  | >25 µg/mL
O=C(CCCCC(=O)Nc1ccc(C(=O)Nc2cc(C3=NCCN3)cc(C3=NCCN3)c2)cc1)Nc1ccc(C(=O)Nc2cc(C3=NCCN3)cc(C3=NCCN3)c2)cc1 | H37Rv | resazurin | MIC bound |  | >6.25 µg/mL
O=C1NC(=S)N/C1=C/c1cccc(Oc2ccccc2)c1 | H37Rv |  | EC50 |  | <6.25 µg/mL
O=[N+]([O-])c1ccc(Nc2ccc[n+]3c([O-])csc23)nc1 | H37Rv | resazurin | inhibition | 6.25 µg/mL | -38%
CCOC(=O)c1cn(-c2ccccc2)nn1 | H37Rv |  | MIC |  | >12.5 µg/mL
CC(=O)O[C@H]1CO[C@@H]2OC3[C@H](C(C=O)=C[C@@H](O)[C@H]4C5=C(C(C)C)CC[C@@]5(C)CC[C@]34C)[C@]2(O)C1=O | H37Rv | BACTEC | MIC |  | ≥12.5 µg/mL
CCn1cc(C(=O)O)c(=O)c2cc(F)c(N3CCN(C/C(=N/OCc4ccccc4)c4cccs4)CC3)cc21 | H37Rv |  | inhibition | 6.25 µg/mL | 48%
CCN(CC)c1ccc2nc3c4ccccc4c(=NC(=O)c4ccccc4-c4c5ccc(N(CC)CC)cc5[o+]c5cc(N(CC)CC)ccc45)cc-3oc2c1.[Cl-] | H37Rv | BACTEC | inhibition | 12.5 µg/mL | 99%
COc1ccnc(CS(=O)c2nc3ccc(OC(F)F)cc3[nH]2)c1OC | Erdman | broth dilution / resazurin | EC50 |  | >50 µM
Cc1cc(NCCCCCCCCNc2cc(C)nc3cc(N(C)C)ccc23)c2ccc(N(C)C)cc2n1 | H37Rv | BACTEC | MIC bound |  | >12.5 µg/mL
CO[C@H]1/C=C/O[C@@]2(C)Oc3c(C)c(O)c4c(O)c(c(N=CN5CCCC5)c(O)c4c3C2=O)NC(=O)/C(C)=C\C=C\[C@H](C)[C@H](O)[C@@H](C)[C@@H](O)[C@@H](C)[C@H](OC(C)=O)[C@@H]1C | H37Rv |  | MIC |  | 0.0012 µg/mL

Repeating the final 4 entries:

smiles	strain or isolate	method	endpoint	dose	result
CCN(CC)c1ccc2nc3c4ccccc4c(=NC(=O)c4ccccc4-c4c5ccc(N(CC)CC)cc5[o+]c5cc(N(CC)CC)ccc45)cc-3oc2c1.[Cl-]	H37Rv	BACTEC	inhibition	12.5 µg/mL	99%
COc1ccnc(CS(=O)c2nc3ccc(OC(F)F)cc3[nH]2)c1OC	Erdman	broth dilution / resazurin	EC50		>50 µM
Cc1cc(NCCCCCCCCNc2cc(C)nc3cc(N(C)C)ccc23)c2ccc(N(C)C)cc2n1	H37Rv	BACTEC	MIC bound		>12.5 µg/mL
CO[C@H]1/C=C/O[C@@]2(C)Oc3c(C)c(O)c4c(O)c(c(N=CN5CCCC5)c(O)c4c3C2=O)NC(=O)/C(C)=C\C=C\[C@H](C)[C@H](O)[C@@H](C)[C@@H](O)[C@@H](C)[C@H](OC(C)=O)[C@@H]1C	H37Rv		MIC		0.0012 µg/mL